Biological target: Biotinylated SARS-CoV-2 S protein, His Tag, active trimer (SARS-CoV-2, UniProt P0DTC2 16-1213)
Experiment: ELISA; CL-L1 coated on plate, biotinylated S protein 0-25 nM, HRP-streptavidin

B1: Recombinant human Collectin-10 (CL-L1) (other)
chain: LDIDSRPTAEVCATHTISPGPKGDDGEKGDPGEEGKHGKVGRMGPKGIKGELGDMGDQGNIGKTGPIGKKGDKGEKGLLGIPGEKGKAGTVCDCGRYRKFVGQLDISIARLKTSMKFVKNVIAGIRETEEKFYYIVQEEKNYRESLTHCRIRGGMLAMPKDEAANTLIADYVAKSGFFRVFIGVNDLEREGQYMFTDNTPLQNYSNWNEGEPSDPYGHEDCVEMLSSGRWNDTECHLTMYFVCEFIKKKK
- binding result: no binding (tested: 25 nM)
